According to patent publication US7750123B2:

Columns and labels:
[1] = molecular target: S1-Ig (SARS-CoV (Tor2 isolate); human) (UniProt P59594); test: SPR (BIAcore 3000), S1-Ig amine-coupled to CM5 chip
[2] = molecular target: S1-C9 (SARS-CoV (Tor2 isolate)) (UniProt P59594); test: phage ELISA, S1-C9 coated 0.2 µg per well
[3] = molecular target: S1(327-510)-Ig (SARS-CoV (Tor2 isolate); human) (UniProt P59594); test: radioimmunoprecipitation with 80R scFv beads, normalized to Protein A

## 80R scFv
[1]
  Ka: 3.1e+07 M⁻¹
  Kd: 32.3 nM
  koff: 0.00836 s⁻¹
  kon: 229000 M⁻¹ s⁻¹
[2]
  A450: > 1 A450
[3]
  percent of the amount that Protein A precipitated: 5%
